The values that follow come from article PMC3295836 (Bioorganic & medicinal chemistry letters, 2012).

The test system of this experiment is anthrax lethal toxin (LT; PA + LF). Also noted: species or system Fischer 344 rats. To be noted: rat, in vivo.

Several values for one entry are separate records, joined by “and”; a condition that tells them apart may be missing. Equal entries are not always repeated.

As to `CCC(NCCCC[C@@H](Nc1cc(C)c(F)c(C)c1)C(=O)NO)c1ccc(F)cc1` (mixture of isomers) [LFI 17], the “surv (number of survivors per group)” value was “protect all of the animals and 3/3 and 0/3”.
